# Measured values published in PMC9927256, “Structural and Functional Characterization of Rv0792c from Mycobacterium tuberculosis: Identifying Small Molecule Inhibitor against HutC Protein” (Microbiology Spectrum, 2022).
# Molecular target: T1, Rv0792c (HutC, GntR family) (Mycobacterium tuberculosis) (UniProt O86331)
# T1 sequence (O86331 whole entry, looked up): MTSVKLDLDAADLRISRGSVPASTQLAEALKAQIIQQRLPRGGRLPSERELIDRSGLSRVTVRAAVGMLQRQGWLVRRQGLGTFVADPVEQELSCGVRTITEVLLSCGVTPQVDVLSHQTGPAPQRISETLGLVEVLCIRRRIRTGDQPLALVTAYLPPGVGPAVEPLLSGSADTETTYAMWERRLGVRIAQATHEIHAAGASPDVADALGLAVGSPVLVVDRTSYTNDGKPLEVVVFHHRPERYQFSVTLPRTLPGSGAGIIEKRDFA
# Assay: EMSA
# Details: 1 uM protein; recombinant protein; label: Cy5; probe letters rebuilt from the primers and the genome
sequence,measurement,value
GGATATCAAGACGTATTAAAACGTCTTATACTCACCACGTCAAGCGTGCGTGCGCGGTAGCAGCGGAAGAAGGTCAGCCATGACGTCACCCGTCGCGGTCATCGCCCGGTTCATGCCACGGCCTGACGCTAGGTCGGCCCTGCGCGCTCTCTTGGACGCAATGATTACCCCGACACGGGCCGAGGACGGATGCCGTAGCTACGACCTCTACGAGAGCGCCGACGGCGGCGAGCTGGTGCTTTTCGAACGGTACCGCAGCCGCATCGCGCTCGACGAGCACCGCGGTTCGCCGCACTATCTGAACTACCGGGCACAGGTCGGTGAATTGCTGACCCGGCCCGTCGCGGTGACTGTGCTCGCGCCGCTCGACGAGGCTTCTGCTTAGAGCGGGTAGCACCCAGGCAGCTTGATCCACGCCCGGCACCGGCCGAGCGCTCGGGAACCGCCGCAGACCACCGCAGTCCCCCCGTGGGTTCAGCGGCGCGGCGGCGGGTTGGCTATACCAGCTCTAGAC (double strand) [Rv0792c promoter fragment],binding result,binds
